Experimental data published in PMC7925178.

Key:
[1] = biological target: AMC009 SOSIP.v4.2 trimer (HIV-1 (subtype B)); assay: native gel or EMSA
[2] = biological target: AMC009 SOSIP.v4.2 trimer (HIV-1 (subtype B)); assay: cryo-EM structure

AMC009 SOSIP.v4.2 trimer (complex)
stoichiometry N [1]: 3
stoichiometry N [2]: 3
